A mixed list of measured activities; the numbers were collected in NIAID ChemDB.

Shared fields: toxicity to cultured cells; cells: MT-4; endpoint: CC50

An empty or dashed field is not shown. Rows are shuffled and stem from different studies. CCn: concentration that lowers growth or viability of the cells by n%.

SMILES | read by | value
CCc1c(Sc2ccccc2)n(COCc2ccccc2)c(=O)[nH]c1=O | - | 30 µM
COc1ccc(N2CCN(CC(=O)OC[C@@H]3CC[C@H](n4cnc5c(=O)[nH]cnc54)O3)CC2)cc1 | MTT | 828 µM
CCOC(=O)c1cnc(N2CCN(Cc3cccc(C(N)=O)c3)CC2)nc1Oc1c(C)cc(-c2ccc(C#N)cc2)cc1C | MTT | >14.84 µM
Cc1cc(C#N)cc(C)c1Oc1nc(N/N=C/C2CCN(Cc3ccc(F)cc3)CC2)nc2ccsc12 | MTT | 5.48 µM
CCCCN1C[C@H](O)[C@@H](O)[C@H](O)[C@H]1CO | MTT | >250 µg/mL
CCc1c(CC23CC4CC(CC(C4)C2)C3)nc(SCc2ccc(OC)cc2)[nH]c1=O | MTT / absorbance | 10.32 µM
CC(C)[C@H](NC(=O)N(C)Cc1ccccn1)C(=O)N[C@@H](Cc1ccccc1)[C@H](O)[C@H](O)[C@H](Cc1ccccc1)NC(=O)[C@@H](NC(=O)N(C)Cc1ccccn1)C(C)C | - | 150 µM
O=C(Cc1ccc(CC(=O)NCCN2CCCCC2)cc1)NCCN1CCCCC1 | MTT | >302 µM
Cc1cc(C#N)cc(C)c1Oc1nc(N/N=C/c2ccc(C#N)cc2F)nc2ccsc12 | MTT | 182 µM
Cc1cn([C@H]2C[C@H](N=[N+]=[N-])[C@@H](CO)O2)c(=O)[nH]c1=O | MTT | >88.26 µM
CCc1c(CC23CC4CC(CC(C4)C2)C3)nc(SCC(=O)Nc2ccc(C(N)=O)cc2)[nH]c1=O | MTT / absorbance | ≥33.5 µM
CN1CCN(CCCNCc2ccc(CNCCCN3CCN(C)CC3)cc2)CC1 | MTT | >300 µM
C#Cc1ccc(Nc2nccc(Oc3c(C)cc(-c4cn(Cc5ccc(O)cc5)nn4)cc3C)n2)cc1 | MTT | 2.1 µM
Cc1nc(N)nc2c1ncn2[C@H]1C[C@H](N=[N+]=[N-])[C@@H](CO)O1 | - | >200 µM
C#Cc1ccc(Nc2nccc(Oc3c(C)cc(-c4cn(Cc5ccccc5)nn4)cc3C)n2)cc1 | MTT | 8.55 µM
CCCN(C)c1nc(N)nc2c1ncn2[C@H]1C[C@H](N=[N+]=[N-])[C@@H](CO)O1 | - | >200 µM
O=C(CSc1sc(Cl)nc1-c1ccc(Br)cc1Br)Nc1ccc(Cl)cc1Cl | MTT | 159 µM
CCc1c(CC23CC4CC(CC(C4)C2)C3)nc(SCC(=O)Nc2ccc(C(C)=O)cc2Br)[nH]c1=O | MTT / absorbance | 20.54 µM
Cc1ccnc2c1NC(=O)c1cccnc1N2C1CC1 | MTT | >15 µM
CC1(C)[C@@H](O[C@H]2O[C@H](C(=O)O)[C@@H](O)[C@H](O)[C@H]2O[C@@H]2O[C@H](C(=O)O)[C@@H](O)[C@H](O)[C@H]2O)CC[C@]2(C)[C@H]3C(=O)C=C4[C@@H]5C[C@@](C)(C(=O)O)CC[C@]5(C)CC[C@@]4(C)[C@]3(C)CC[C@@H]12 | - | 2542 µM
C#Cc1ccc(Nc2nccc(Oc3c(C)cc(-c4cn(Cc5ccc([N+](=O)[O-])cc5)nn4)cc3C)n2)cc1 | MTT | 160 µM
CC(C)=CCOc1ccc([C@@H]2COc3c(ccc4c3C=CC(C)(C)O4)C2)c(O)c1 | - | 79 µg/mL
CCc1c(Sc2cc(C)cc(C)c2)n(COCc2ccccc2)c(=O)[nH]c1=O | - | 20 µM
Nc1ncnc2c1ncn2[C@@H]1OC[C@H](/C=C/P(=O)(O)O)[C@H]1F | MTT | 95 µM
C[C@H]1[C@H](O)[C@H](C)[C@@]2(NC(=O)OC(C)(C)C)O[C@@H]1[C@H]1O[C@H]12 | MTT | >440 µM
C[C@H](CCC(=O)NCCS(=O)(=O)O)[C@H]1CC[C@H]2[C@@H]3CC[C@@H]4C[C@H](O)CC[C@]4(C)C3CC[C@]12C | MTT | 250 µg/mL
Cc1cc(C#N)cc(C)c1Oc1nc(N/N=C/C2CCN(Cc3ccc(S(=O)(=O)NC4CC4)cc3)CC2)nc2ccsc12 | MTT | 4.03 µM
CC(=O)C1(c2ccccc2)C(=O)C=C2N(C1=O)c1ccc(Cl)cc1C2(C)C | - | >6.5 µM
Nc1ccccc1NC(=O)CSc1sc(Cl)nc1-c1ccc(Br)cc1Br | MTT | 109 µM
Nc1nc(=O)n([C@@H]2CS[C@H](CO)O2)cc1F | - | >100 µg/mL
CC(=O)O[C@H]1[C@H](C)[C@@H]2O[C@@](NC(=O)OC(C)(C)C)([C@@H]3O[C@H]23)[C@H]1C | MTT | >76 µM
Cc1ccnc2c1NC(=O)c1cccnc1N2C1CC1 | MTT / absorbance | >15.02 µM
Nc1nc2c(ncn2[C@@H]2OC[C@H](/C=C/P(=O)(O)O)[C@H]2F)c(=O)[nH]1 | MTT | 98 µM
Nc1ncnc2c1ncn2[C@@H]1CC(CO)(CO)CS1 | - | >100 µg/mL
Nc1nc(-c2ccc(Br)cc2Br)c(SCC(=O)Nc2ccccc2N)s1 | MTT | 33.04 µM
CCCNc1nc(N)nc2c1ncn2[C@H]1C[C@H](N=[N+]=[N-])[C@@H](CO)O1 | - | >80 µM
O=C(Cc1ccc(CC(=O)NCCN2CCOCC2)cc1)NCCN1CCOCC1 | MTT | >299 µM
O=C(CSc1sc(Cl)nc1-c1ccc(Br)cc1Br)Nc1ccccc1Br | MTT | 12.5 µM
Cc1cn([C@@H]2CC(CO)(CO)CS2)c(=O)[nH]c1=O | - | >100 µg/mL
COc1ccc(Cc2nccc3cc(OC)c(OC)cc23)cc1OC | MTT | 1 µg/mL
Cc1cc([N+](=O)[O-])ccc1NC(=O)CSc1sc(Cl)nc1-c1ccc(Br)cc1Br | MTT | 127.4 µM
CCc1c(CC23CC4CC(CC(C4)C2)C3)nc(SCC(=O)c2ccc(OC)cc2)[nH]c1=O | MTT / absorbance | 17.19 µM
Nc1nc2c(ncn2[C@H]2CS[C@@H](CO)S2)c(=O)[nH]1 | - | >100 µg/mL
[N-]=[N+]=N[C@H]1C[C@H](n2cnc3c(Nc4ccccc4)nc(N)nc32)O[C@@H]1CO | - | >200 µM
Cc1cc(C#N)cc(C)c1Oc1nc(N/N=C/c2ccc(C#N)cc2)nc2ccsc12 | MTT | 183 µM
CC(C)(C)OC(=O)[C@@H]1CCCN1C[C@H](O)[C@H](Cc1ccccc1)NC(=O)[C@H](CC(N)=O)NC(=O)OCc1ccccc1 | MTT | >250 µg/mL
O=C(CN1CCN(c2cc3c(cc2F)c(=O)c(C(=O)O)cn3C2CC2)CC1)OC[C@@H]1CC[C@H](n2cnc3c(=O)[nH]cnc32)O1 | MTT | 380 µM
C#Cc1ccc(Nc2nccc(Oc3c(C)cc(-c4cn(CCCC(=O)OC)nn4)cc3C)n2)cc1 | MTT | 20.15 µM
CC(C)(C)C(=O)SCCOP(=O)(COCCn1cnc2c(N)ncnc21)OCCSC(=O)C(C)(C)C | MTT | >10 µM
C/C(=C\Cc1c(O)cc(O)c2c(=O)c(-c3ccc(O)cc3)coc12)CO | - | 9 µg/mL
Nc1nc(Cl)c2ncn([C@H]3CS[C@@H](CO)S3)c2n1 | - | >100 µg/mL
C[C@@H]1[C@@H]2O[C@]3(NC(=O)OC(C)(C)C)[C@@H](C)[C@H]1O[C@H]2[C@@H]3I | MTT | >63 µM
O=c1[nH]cnc2c1ncn2[C@H]1CS[C@@H](CO)S1 | - | >100 µg/mL
Nc1ncc(CN(CCN2CCCCC2)CC2CCCN(C3CCCC3)C2)cn1 | MTT | >100 µM
CC(C)=CCc1c(-c2ccc(O)cc2O)oc2c(CC=C(C)C)c(O)cc(O)c2c1=O | - | 44 µg/mL
Cc1cn([C@H]2C[C@H](N=[N+]=[N-])[C@@H](CO)O2)c(=O)[nH]c1=O | MTT | >7.48 µM
Cc1ccnc2c1NC(=O)c1cccnc1N2C1CC1 | - | >0.06 µM
CN(c1nc(N)nc2c1ncn2[C@H]1C[C@H](N=[N+]=[N-])[C@@H](CO)O1)C1CC1 | - | <200 µM
C#Cc1ccc(Nc2nccc(Oc3c(C)cc(-c4cn(CC(=O)OC)nn4)cc3C)n2)cc1 | MTT | 10.35 µM
CCOC(=O)c1oc2cc(O)cc(O)c2c(=O)c1Oc1ccccc1 | - | >100 µg/mL
CC1CCCCN1CCCNCc1ccc(CC(=O)NCCCN2CCOCC2)cc1 | MTT | >58.05 µM
Oc1cccc(CN(CCN2CCCCC2)CC2CCCN(C3CCCC3)C2)c1 | MTT | 58 µM
O=C(Cc1ccc(CC(=O)NCCCN2CCOCC2)cc1)NCCCN1CCOCC1 | MTT | >280 µM
CC1(C)C2=CC(=O)C(c3ccccc3)([N+](=O)[O-])C(=O)N2c2ccc(Cl)cc21 | - | >13.4 µM
CCCCOc1nc(N)nc2c1ncn2[C@H]1C[C@H](N=[N+]=[N-])[C@@H](CO)O1 | - | <200 µM
CC(C)c1nc(CN(C)C(=O)N[C@H](C(=O)N[C@@H](Cc2ccccc2)C[C@H](O)[C@H](Cc2ccccc2)NC(=O)OCc2cncs2)C(C)C)cs1 | MTT | >1.39 µM
O=C(CN1CCN(c2ccccc2)CC1)OC[C@@H]1CC[C@H](n2cnc3c(=O)[nH]cnc32)O1 | MTT | >1000 µM
NCCCCN(Cc1nc2ccccc2[nH]1)C1CCCc2cccnc21 | MTT | >10 µM
c1cc(CCNCCN2CCCC2)ccc1CCNCCN1CCCC1 | MTT | 195 µM
Cc1c(CC23CC4CC(CC(C4)C2)C3)nc(SCC(=O)Nc2ccc(S(N)(=O)=O)cc2)[nH]c1=O | MTT / absorbance | 4.99 µM
CCOP(=O)(N[C@@H](C)C(=O)OC)OC[C@H]1O[C@@H](n2cc(C)c(=O)[nH]c2=O)C[C@@H]1N=[N+]=[N-] | MTT | >236 µg/mL
Nc1nc(-c2ccc(Br)cc2Br)c(SCC(=O)Nc2ccccc2Br)s1 | MTT | 33.18 µM
CCOP(=O)(N[C@@H](CC(C)C)C(=O)OC)OC[C@H]1O[C@@H](n2cc(C)c(=O)[nH]c2=O)C[C@@H]1N=[N+]=[N-] | MTT | >234 µg/mL
CNS(=O)(=O)c1ccc(CN2CCC(/C=N/Nc3nc(Oc4c(C)cc(C#N)cc4C)c4sccc4n3)CC2)cc1 | MTT | 3.82 µM
c1cc(CNCCCN2CCCCC2)ccc1CNCCCN1CCCCC1 | MTT | >64.65 µM
Cc1cc(C#N)cc(C)c1Oc1nc(N/N=C/C2CCN(Cc3ccc(S(N)(=O)=O)cc3)CC2)nc2ccsc12 | MTT | 3.6 µM
c1cc(CN2CCCNCCNCCCNCC2)ccc1CN1CCCNCCNCCCNCC1 | MTT | >9.94 µM